From paper PMC8011991 (Journal of medicinal chemistry, 2020)

Test system: HIV-1 NL4–3 virus
Conditions: TZM-bl cells

Compound | SI (selectivity index, ratio of CC50/EC50)
COc1ccc(N(C)C(=O)[C@H](Cc2ccccc2)NC(=O)CN2CCN(S(=O)(=O)c3ccc(OC)cc3)CC2=O)cc1 [Compound 11g, (S)-N-(4-methoxyphenyl)-2-(2-(4-((4-methoxyphenyl)sulfonyl)-2-oxopiperazin-1-yl)acetamido)-N-methyl-3-phenylpropanamide] | >52.63
COc1ccc(N(C)C(=O)[C@H](Cc2ccccc2)NC(=O)CNS(=O)(=O)c2ccccc2[N+](=O)[O-])cc1 [Compound 6m, (S)-N-(4-methoxyphenyl)-N-methyl-2-(2-((2-nitrophenyl)sulfonamido)acetamido) −3-phenylpropanamide] | >4.35
